A mixed list of measured activities; the numbers were collected in NIAID ChemDB.

All rows: growth or infection tests; organism: Candida albicans

Two numbers with a dash give a range or band.

COc1ccc(C(Cc2ccc(N)cc2)n2ccnc2)cc1 ; strain or isolate: 34 strains ; read-out: MIC90 ; result: 8 µg/mL
CCCCCCCCCCn1cc[n+](COCCCCCOC[n+]2ccn(CCCCCCCCCC)c2)c1 ; method: agar diffusion ; strain or isolate: ATCC 90028 ; read-out: MIC100 ; result: 4 µM
NC(=NC1CCCC1)c1ccc(-c2ccc(-c3ccc(C(N)=NC4CCCC4)cc3)o2)cc1 ; strain or isolate: Isolate CA783 ; read-out: MIC ; result: 12.5 µg/mL
COc1ccc(C(Cc2cccc(F)c2)n2ccnc2)cc1 ; strain or isolate: 34 strains ; read-out: Geometric mean MIC ; result: 140.9 µg/mL
C=C(C)CN1C[C@H](OC[C@@]23C[C@@H]4[C@H](C)CC[C@H]4[C@@]4(C=O)C[C@@H]2CC(C(C)C)[C@@]34C(=O)O)O[C@H](C)C1 ; strain or isolate: CL-236 ; read-out: MIC ; result: 0.002 µg/mL
C[C@@H](N1CCN(Cc2cn(Cc3ccc(F)cc3F)c3cc(Cl)ccc23)CC1)[C@](O)(Cn1cncn1)c1ccc(F)cc1F ; method: resazurin ; strain or isolate: ATCC 64548 ; read-out: MIC80 ; result: 0.125 µg/mL
CCCCCCn1cc[n+](COCCCCCCOC[n+]2ccn(CCCCCC)c2)c1 ; method: agar diffusion ; strain or isolate: ATCC 90028 ; read-out: MIC100 ; result: 38 µM
Clc1ccc(COC(Cn2ccnc2)c2ccc(Cl)cc2Cl)c(Cl)c1 ; strain or isolate: ATCC 2091 ; read-out: MIC ; result: 0.05 µg/mL
CCCCOc1cc(O)cc(C(=O)O)c1 ; strain or isolate: Clinical isolates ; read-out: MIC ; result: 125–250 µg/mL
C[C@@H](N1CCN(Cc2cn(Cc3ccc(F)cc3)c3c(F)cccc23)CC1)[C@](O)(Cn1cncn1)c1ccc(F)cc1F ; method: resazurin ; strain or isolate: ATCC 64548 ; read-out: MIC80 ; result: 0.125 µg/mL
COc1cc(NC(C)CCCNC(=O)[C@H](CCCN)NC(=O)[C@@H](N)CCCN)c2nc(C(C)(C)C)ccc2c1 ; method: broth dilution ; read-out: EC50 ; result: >20 µg/mL
CCC(C)c1ccc(Cn2cc(CN3CCN([C@H](C)[C@](O)(Cn4cncn4)c4ccc(F)cc4F)CC3)c3ccccc32)cc1 ; method: resazurin ; strain or isolate: ATCC 64548 ; read-out: MIC80 ; result: 0.125 µg/mL
CCCCCCSc1cc(C(N)=S)ccn1 ; strain or isolate: 176 ; read-out: MFC ; result: 50 µg/mL
CC(=O)OCC1C=C(c2ccc(Cl)c(Cl)c2)C(=O)O1 ; strain or isolate: 25 isolates ; read-out: MIC50 ; result: 2 µg/mL
CCCCCOc1ccc(C(=O)O)c(OC)c1 ; strain or isolate: Clinical isolates ; read-out: MIC ; result: 125–250 µg/mL
Clc1cccc(Cl)c1COc1ccc(C(c2nccc3ccccc23)n2ccnc2)cc1 ; strain or isolate: 16 strains ; read-out: MIC90 ; result: ≥256 µg/mL
C=CCN1C[C@H](OC[C@@]23C[C@@H]4[C@H](C)CC[C@H]4[C@@]4(C=O)C[C@@H]2CC(C(C)C)[C@@]34C(=O)O)O[C@H](C)C1 ; strain or isolate: 16 isolates ; read-out: MIC50 ; result: 0.008 µg/mL
C[C@@H](n1ccn(-c2ccc(OC(F)(F)C(F)F)cc2)c1=O)C(O)(Cn1cncn1)c1ccccc1F ; strain or isolate: TA ; read-out: MIC ; result: <0.016 µg/mL
C=CCn1c(-c2ccc(N=N/C(C(=O)OCC)=C(/C)O)cc2)n[nH]c1=S ; strain or isolate: ATCC 2091 ; read-out: MIC ; result: 62.5 µg/mL
C=C(CF)CN1C[C@H](OC[C@@]23C[C@@H]4[C@H](C)CC[C@H]4[C@@]4(C=O)C[C@@H]2CC(C(C)C)[C@@]34C(=O)O)O[C@H](C)C1 ; strain or isolate: 16 isolates ; read-out: MIC90 ; result: 0.008 µg/mL
COc1cc(NC(C)CCCNC(=O)[C@H](CCCN=C(N)N)NC(=O)[C@@H](N)CCCN=C(N)N)c2ncccc2c1 ; method: broth dilution ; read-out: MIC ; result: >20 µg/mL
CCCCCCCCCCCn1cc[n+](COCCCOC[n+]2ccn(CCCCCCCCCCC)c2)c1 ; method: agar diffusion ; strain or isolate: ATCC 90028 ; read-out: MIC100 ; result: 81 µM
C[C@@H](N1CCN(c2ccc(C(F)(F)F)cc2)C1=O)C(O)(Cn1cncn1)c1ccc(F)cc1F ; strain or isolate: TIMM1756 ; read-out: MIC ; result: <0.016 µg/mL
COc1cc(NC(C)CCCNC(=O)[C@@H](CCCN=C(N)N)NC(=O)[C@H](N)CCCN=C(N)N)c2ncccc2c1 ; method: broth dilution ; read-out: EC50 ; result: >20 µg/mL
c1ccc(Cc2ccc(C(c3nccc4ccccc34)n3ccnc3)cc2)cc1 ; strain or isolate: 44 strains ; read-out: MIC90 ; result: 32 µg/mL
COc1cc(NC(C)CCCNC(=O)[C@H](CCCCN)NC(=O)[C@@H](N)CCCCN)c2ncccc2c1 ; method: broth dilution ; read-out: EC50 ; result: >20 µg/mL
COc1ccc(C(Cc2ccccc2[N+](=O)[O-])n2ccnc2)cc1 ; strain or isolate: 34 strains ; read-out: MIC90 ; result: >256 µg/mL
Fc1ccc(COc2ccc(C(c3cccc4ccccc34)n3ccnc3)cc2)c(F)c1.O=[N+]([O-])O ; strain or isolate: 16 strains ; read-out: MIC90 ; result: ≥256 µg/mL
C[C@@H](N1CCN(Cc2cn(-c3ccc(F)cc3)c3ccccc23)CC1)[C@](O)(Cn1cncn1)c1ccc(F)cc1F ; method: resazurin ; strain or isolate: ATCC 36082 ; read-out: MIC80 ; result: 0.125 µg/mL
CSc1cc(C(N)=S)ccn1 ; strain or isolate: 3a ; read-out: MIC ; result: 200 µg/mL
CCCCCCCn1cc[n+](COCCOC[n+]2ccn(CCCCCCC)c2)c1 ; method: agar diffusion ; strain or isolate: ATCC 90028 ; read-out: MIC100 ; result: 20 µM
COc1ccc(C(Cc2ccc(F)cc2)n2ccnc2)cc1 ; strain or isolate: 34 strains ; read-out: MIC50 ; result: 32 µg/mL
CCCCOc1ccc(C(=O)O)c(OC)c1 ; strain or isolate: Clinical isolates ; read-out: MIC ; result: 125–250 µg/mL
C[C@H]1[C@H](O)[C@@H](C)/C=C/C=C/C=C/C=C/C=C/C=C/C=C/[C@H](O[C@@H]2O[C@H](C)[C@@H](O)[C@H](N)[C@@H]2O)C[C@@H]2O[C@](O)(C[C@@H](O)C[C@@H](O)CC[C@H](O)[C@@H](O)C[C@@H](O)CC(=O)O[C@H]1C)C[C@H](O)[C@H]2C(=O)O ; strain or isolate: 9 isolates fluconazole-resistant ; read-out: MIC50 ; result: 0.125 µg/mL
COc1cc(NC(C)CCCNC(=O)CC(NC(=O)[C@@H](N)CCCN=C(N)N)C(=O)O)c2nc(C(C)(C)C)ccc2c1 ; method: broth dilution ; read-out: EC50 ; result: >20 µg/mL
C[C@@H](N1CCN(Cc2cn(Cc3ccc(Cl)cc3Cl)c3c(Cl)cccc23)CC1)[C@](O)(Cn1cncn1)c1ccc(F)cc1F ; method: resazurin ; strain or isolate: ATCC 90028 ; read-out: MIC80 ; result: 0.125 µg/mL
CCCCCCCCSc1cc(C(N)=S)ccn1 ; strain or isolate: 42 ; read-out: MIC ; result: 50 µg/mL
COc1ccc(C(Cc2ccccc2Cl)n2ccnc2)cc1 ; strain or isolate: 34 strains ; read-out: Geometric mean MIC ; result: 198.1 µg/mL
C[C@@H](n1ccn(-c2ccc(OCC(F)(F)C(F)F)cc2)c1=O)C(O)(Cn1cncn1)c1ccc(F)cc1F ; strain or isolate: TIMM1756 ; read-out: MIC ; result: <0.016 µg/mL
CCOC(=O)/C(N=Nc1ccc(-c2n[nH]c(=S)o2)cc1)=C(\C)O ; strain or isolate: ATCC 2091 ; read-out: MIC ; result: 62.5 µg/mL
COc1cc(NC(C)CCCNC(=O)CCC(NC(=O)[C@@H](N)CCCN=C(N)N)C(=O)O)c2nc(C(C)(C)C)ccc2c1 ; method: broth dilution ; read-out: EC50 ; result: >20 µg/mL
CCCCCCCCCCCCCSc1cc(C(N)=S)ccn1 ; strain or isolate: 3a ; read-out: MFC ; result: 100 µg/mL
O[C@](Cn1cncn1)(Cn1cnc(/C=C/c2ccc(OCC(F)(F)C(F)F)cc2)n1)c1ccc(F)cc1F ; strain or isolate: Isolate 06-9 ; read-out: MIC ; result: 2 µg/mL
COc1ccc([C@@H](Cc2ccc(Cl)cc2Cl)n2ccnc2)cc1 ; strain or isolate: 34 strains ; read-out: MIC50 ; result: 2 µg/mL
Fc1ccc(COc2ccc(C(c3ccc(-c4ccccc4)cc3)n3ccnc3)cc2)cc1.O=[N+]([O-])O ; strain or isolate: 16 strains ; read-out: Mean MIC ; result: ≥256 µg/mL
COc1ccc(C(Cc2ccc(Cl)cc2)n2ccnc2)cc1 ; strain or isolate: 34 strains ; read-out: MIC50 ; result: 16 µg/mL
CCOC(=O)/C(N=Nc1ccc(-c2n[nH]c(=O)n2-c2ccccc2)cc1)=C(\C)O ; strain or isolate: ATCC 2091 ; read-out: MIC ; result: 62.5 µg/mL
C[C@@H](n1ccn(-c2ccc(C(F)(F)F)cc2)c1=O)C(O)(Cn1cncn1)c1ccc(F)cc1F ; strain or isolate: TIMM1756 ; read-out: MIC ; result: <0.016 µg/mL
Clc1ccccc1COc1ccc(C(c2nccc3ccccc23)n2ccnc2)cc1.O=[N+]([O-])O ; strain or isolate: 16 strains ; read-out: MIC90 ; result: ≥256 µg/mL
CCCCCCn1cc[n+](COCCCOC[n+]2ccn(CCCCCC)c2)c1 ; method: agar diffusion ; strain or isolate: ATCC 90028 ; read-out: MIC100 ; result: 82 µM
COc1ccc(C(Cc2ccccc2F)n2ccnc2)cc1 ; strain or isolate: 34 strains ; read-out: MIC90 ; result: 256 µg/mL
COc1cc(NC(C)CCCNC(=O)CC(NC(=O)[C@@H](N)CCCCN)C(=O)O)c2nc(C(C)(C)C)ccc2c1 ; method: broth dilution ; read-out: MIC ; result: >20 µg/mL
CCCCOc1ccc(C(=O)O)c(O)c1 ; strain or isolate: Clinical isolates ; read-out: MIC ; result: 125–250 µg/mL

ECn: concentration that inhibits the pathogen or its effect by n%. MIC50, MIC90 and the like: level of inhibition, or share of isolates inhibited. Neighbouring rows are from separate reports.